Test results from patent US20240285753A1 (DUKE UNIVERSITY, published 2024).

Experiments:
[1] = target: SARS-CoV-2 BA.1 recombinant spike (hexapro) (SARS-CoV-2); experiment: ELISA, coated spike, mAb titrated
[2] = target: SARS-CoV-2 XBB1.5 recombinant spike (hexapro) (SARS-CoV-2); experiment: ELISA, coated spike, mAb titrated

B1: DH1498 (antibody, V domains shown)
VH: QVQLQESGPGLVKPSETLSLTCAVSGGSVSSDTYYWSWIRQPPGKGLEWIGYIYNSGSTNYNPSLKSRVTISVDTSKSQFSLNLGSVTAADTAVYYCAREGAGTYPPKNDAFDIWGQGTLVTVSS
VL: EIVLTQSPDSLAVSLGERATINCKSSQSVLFSSDNKNYLAWYQQKPGQPPKLLIYWASTRESGVPDRFSGSGSGTDFTLTISSLQAEDVAVYYCQQYYNSPRTFGQGTKVEIK
In the case of B1, the “EC50 (read off the curve)” value [1] is reported as about 0.02 µg/mL and the “EC50 (read off the curve)” value [2] is reported as about 0.02 µg/mL.
